Measured values from several laboratories, pooled; numbers as filed in NIAID ChemDB.

All rows: growth or infection tests; agent: HIV-1; read-out: fold resistance

Fold resistance: result on the changed form divided by that on wild type. Blank or dashed fields: not listed here. Conditions beyond the fields shown may differ between rows.

structure	strain or isolate	mutations	cells	read by	value
CCc1ccc(-n2c(C)nnc2SCC(=O)Nc2ccc(C)cc2Cl)c2ccccc12	NL4-3	RT-K103N Y181C	HeLa + HeLa-JC53	luciferase	32
Cc1occc1C(=S)Nc1ccc(Cl)c(/C=N/OC(C)(C)C)c1	NL4-3	RT-V179D	CEM + CEM-SS	cytopathic effect / XTT	9.125
CC(C)OC(=S)Nc1ccc(Cl)c(C(=O)OC2CCCC2)c1		RT-V106A	CEM	syncytia	27.3
CCN1C(=O)c2c(O)c(=O)c(C(=O)NCc3ccc(F)c(Cl)c3F)cn2[C@H]2CCOC[C@H]21		N155H/Q148R	MT-2	luminescence	2.8
C=CCOC(=S)Nc1ccc(Cl)c(C(=O)OC(C)C)c1		RT-L100I	CEM	syncytia	67.1
Cc1cc(C)c2ccccc2c1-n1c(C)nnc1SCC(=O)Nc1ccccc1Br	NL4-3	RT-Y188L	HeLa + HeLa-JC53	luciferase	89
CCN1c2ncc(CCOc3ccc(C(=O)NCC4(C(=O)O)CCCC4)cc3C)cc2C(=O)N(C)c2cccnc21		RT-K103N Y181C	C8166	p24	>1
Cc1nnc(SCC(=O)Nc2ccc(S(N)(=O)=O)cc2Cl)n1-c1ccc(Cl)c2ccccc12	NL4-3	RT-Y188L	HeLa + HeLa-JC53	luciferase	68
CCN1c2ncc(CCOc3ccc(Nc4cccc(CC(=O)O)c4)cc3C)cc2C(=O)N(C)c2cccnc21		RT-K103N Y181C	C8166	p24	1
Cc1ccc(NC(=O)CSc2nnc(C)n2-c2ccc(F)cc2)c(Cl)c1	NL4-3	RT-K103N Y181C	HeLa + HeLa-JC53	luciferase	>4.3
CCN1c2ncc(CCOc3ccc(-c4ccc(O)cc4)cc3C)cc2C(=O)N(C)c2cccnc21		RT-K103N Y181C	C8166	p24	1
C=C(C)COc1cc(NC(=S)OC(C)C)ccc1Cl		RT-E138K	CEM	syncytia	7.78
CN(C)C1=C(C#N)/C(=C2/C(C#N)=C(N(C)C)N(c3ccc([N+](=O)[O-])cc3)c3c2n(C)c2ccccc32)c2c(c3ccccc3n2C)N1c1ccc([N+](=O)[O-])cc1	A17	RT-K103N Y181C	CEM + CEM-SS	cytopathic effect / XTT	3.62
COC(=O)[C@H](C)NP(=O)(OC[C@@H]1C=C[C@H](n2cc(C)c(=O)[nH]c2=O)O1)Oc1ccc(Br)cc1Cl	A17	RT-Y181C	PBMC	p24	31
CCN1c2ncc(CCOc3ccc(C(=O)NS(=O)(=O)c4ccccc4)cc3C)cc2C(=O)N(C)c2cccnc21		RT-K103N Y181C	C8166	p24	>1
CCOC(=O)c1cc(NC(=S)OC(C)C)ccc1SC		RT-L100I	CEM	syncytia	58.5
CC(C)=CCN1CC(C)Cn2c(=S)[nH]c3cccc1c32	A17	RT-K103N Y181C	CEM(SS) + CEM-SS	cytopathic effect / XTT	>52.4
CC(C)=CCOc1cc(NC(=S)c2ccsc2C)ccc1Cl	4XAZT+L100I (RT D67N K70R L100I T215Y K219Q)	RT-L100I	CEM + CEM-SS	p24	17
CC=CCOc1cc(NC(=S)c2ccoc2C)ccc1OC	NL4-3	RT-A98G	CEM + CEM-SS	cytopathic effect / XTT	1
COc1ccnc2[nH]cc(C(=O)C(=O)N3CCN(C(=O)c4ccccc4)C[C@H]3C)c12	NL4-3(GP120-M475I) Recombinant	GP120-M475I	MT-2	RT activity	40.1
Cc1cc(C#N)cc(C)c1Oc1nc(Nc2ccc(C#N)cc2)ncc1SCC(=O)NCCN1CCN(C(=O)OC(C)(C)C)CC1		L100I	MT-4	MTT	2.2
COC(=O)c1cc(NC(=S)OC(C)C)ccc1Cl		RT-L100I	CEM	syncytia	12
Nc1ncnc2c1ncn2[C@@H]1O[C@H](CO)C=C1F		6TAMs	MT-2		3
O=C(O[C@@H]1[C@H](OC(=O)c2ccccc2)[C@@H](CO)O[C@H]1n1cnc2c(N(C(=O)c3ccccc3)C(=O)c3ccccc3)ncnc21)c1ccccc1	NL4-3	K65R	HeLaP4	β-galactosidase	0.92
CCC(CC)COC(=O)c1cc(NC(=S)OC(C)C)ccc1Cl		RT-V106A	CEM	syncytia	28.3
CCN1c2ncc(CCOc3ccc(-c4ccc(CCC(=O)O)cc4)cc3C)cc2C(=O)N(C)c2cccnc21		RT-K103N Y181C	C8166	p24	>1
C=CCOc1cc(NC(=S)OC(C)C)ccc1Cl		RT-L100I	CEM	syncytia	14.3
CCN1C(=O)c2c(O)c(=O)c(C(=O)NCc3c(F)cc(F)cc3F)cn2[C@H]2COC[C@H]21		E138K/Q148K	MT-2	luminescence	23.8
CC(C)OC(=O)Oc1cc(NC(=S)OC(C)C)ccc1Cl		RT-V106A	CEM	syncytia	8.76
COC(=O)[C@H](C)NP(=O)(OC[C@@H]1C=C[C@H](n2cc(C)c(=O)[nH]c2=O)O1)Oc1c(OC)cccc1OC	A17	RT-Y181C	PBMC	p24	22.8
C=CCNC(=O)CSc1cnc(Nc2ccc(C#N)cc2)nc1Oc1c(C)cc(C#N)cc1C		F227L V106A	MT-4	MTT	53.3
COC(=O)[C@H](C)NP(=O)(OC[C@@H]1C=C[C@H](n2cc(C)c(=O)[nH]c2=O)O1)Oc1cc(Cl)ccc1Cl	A17	RT-Y181C	PBMC	p24	37
Cc1nnc(SCC(=O)Nc2ccccc2Br)n1-c1ccc(Cl)c2ccccc12	NL4-3	RT-Y188L	HeLa + HeLa-JC53	luciferase	250
Cc1occc1C(=S)Nc1ccc(Cl)c(C(=O)OC(C)C)c1	NL4-3	RT-L100I	CEM + CEM-SS	cytopathic effect / XTT	20
CCCCCOC(=S)Nc1ccc(Cl)c(C(=O)OC(C)C)c1		RT-Y181C	CEM	syncytia	10.9
CC(C)=CCOc1cc(NC(=S)c2ccsc2C)ccc1Cl	NL4-3 (RT V106I)	RT-V106I	CEM + CEM-SS	cytopathic effect / XTT	13.3
C=C(C)[C@@H]1CC[C@]2(C(=O)NCCCCCCCC(=O)N[C@@H](CC(C)C)[C@@H](O)CC(=O)O)CC[C@]3(C)[C@H](CC[C@@H]4[C@@]5(C)CC[C@H](O)C(C)(C)[C@@H]5CC[C@]43C)[C@@H]12	LAI	GP41-K90R	HeLa P4 + HeLa	syncytia	~1
C=CCO/N=C/c1cc(NC(=S)c2ccoc2C)ccc1Cl	NL4-3	RT-A98G	CEM + CEM-SS	cytopathic effect / XTT	57.1
Cc1cc(C#N)cc(C)c1Oc1nc(Nc2ccc(C#N)cc2)ncc1SCC(=O)NC1CC1		E138K	MT-4	MTT	4.3
CCN1C(=O)c2c(O)c(=O)c(C(=O)NCc3ccc(F)cc3F)cn2[C@H]2CCOC[C@H]21		N155H/Q148R	MT-2	luminescence	1.8
CC(C)OC(=S)Nc1ccc(Cl)c(C(=O)OCC(F)(F)F)c1		RT-V106A	CEM	syncytia	>28.6
CCN1c2ncc(CCOc3ccc(NC(=O)c4ccc(C(=O)O)cc4)cc3C)cc2C(=O)N(C)c2cccnc21		RT-K103N Y181C	C8166	p24	>1
NS(=O)(=O)c1ccc(NC(=O)CSc2nnc(C(F)(F)F)n2-c2cccc3cccnc23)c(Cl)c1	NL4-3	RT-Y188L	HeLa + HeLa-JC53	luciferase	90
CCN1c2ncc(CCOc3ccc(-c4ccc(C)[n+]([O-])c4)cc3C)cc2C(=O)N(C)c2cccnc21		RT-K103N Y181C	C8166	p24	1
CCOC(=O)C(C)Oc1cc(NC(=S)OC(C)C)ccc1Cl		RT-L100I	CEM	syncytia	10
CCN1c2ncc(CCOc3ccc(-c4ccc(C(=O)O)cc4)cc3C)cc2C(=O)N(C)c2cccnc21		RT-K103N Y181C	C8166	p24	1
N#C[C@]1(CO)O[C@@H](n2cnc3c(=O)[nH]cnc32)C[C@@H]1O	3TC-resistant (RT M184V)	RT-M184V	MAGI	β-galactosidase	25
CCCCCCCCCCCCCCCC(=O)Nc1ccn([C@H]2CC[C@@H](COP(=O)(O)O[C@H]3C[C@H](n4cc(C)c(=O)[nH]c4=O)O[C@@H]3CO)O2)c(=O)n1	DPS-resistant (RT-Y181C)	Diphenyl sulfone-resistant (RT-Y181C)	CEM + CEM-SS	cytopathic effect / XTT	0.63
C=CCOC(=O)c1cc(NC(=S)OC(C)C)ccc1Cl		RT-L100I	CEM	syncytia	17.6
CCCc1cc(=O)oc2c3c(c4c(c12)OC(C)(C)CC4)O[C@H](C)[C@@H](C)C3=O		RT-V108I		cytopathic effect / XTT	>68
CCN1c2ncc(CCOc3ccc(-c4ccc(CC(=O)O)cc4)cc3CO)cc2C(=O)N(C)c2cccnc21		RT-K103N Y181C	C8166	p24	>1
CC(C)=CCOc1cc(NC(=S)c2ccoc2C)ccc1Cl	NL4-3 (RT K101E)	RT-K101E	CEM + CEM-SS	cytopathic effect / XTT	6.67
Cc1cc(C)cc(S(=O)(=O)c2c(C(=O)/C=C/C(N)=O)[nH]c3ccc(Cl)cc23)c1	IIIB	RT-K103N Y181C	C8166	p24	1666
Cc1cc2cccc(C)c2c(-n2c(C)nnc2SCC(=O)Nc2ccccc2Br)c1C	NL4-3	RT-Y188L	HeLa + HeLa-JC53	luciferase	67
Cc1occc1C(=S)Nc1ccc(Cl)c(C(=O)OCC2CC2)c1	NL4-3	RT-L74V	CEM + CEM-SS	cytopathic effect / XTT	1
CC(C)OC(=S)Nc1ccc(Cl)c(C(=O)OC2(C)COC2)c1		RT-L100I	CEM	syncytia	14
Cc1cc(C#N)cc(C)c1Oc1nc(Nc2ccc(C#N)cc2)ncc1SCC(=O)NCc1ccc(O)cc1		RES056	MT-4	MTT	49.3
C[C@@H]1CCO[C@H]2Cn3cc(C(=O)NCc4ccc(F)cc4F)c(=O)c(O)c3C(=O)N12		I60M/V72I/L74F/V75I	TZM-bl	luciferase / luminescence	0.3
CC(=O)OCCOC(=O)c1cc(NC(=S)OC(C)C)ccc1Cl		RT-V106A	CEM	syncytia	>10

The last 8 rows once more:

structure | strain or isolate | mutations | cells | read by | value
CC(C)=CCOc1cc(NC(=S)c2ccoc2C)ccc1Cl | NL4-3 (RT K101E) | RT-K101E | CEM + CEM-SS | cytopathic effect / XTT | 6.67
Cc1cc(C)cc(S(=O)(=O)c2c(C(=O)/C=C/C(N)=O)[nH]c3ccc(Cl)cc23)c1 | IIIB | RT-K103N Y181C | C8166 | p24 | 1666
Cc1cc2cccc(C)c2c(-n2c(C)nnc2SCC(=O)Nc2ccccc2Br)c1C | NL4-3 | RT-Y188L | HeLa + HeLa-JC53 | luciferase | 67
Cc1occc1C(=S)Nc1ccc(Cl)c(C(=O)OCC2CC2)c1 | NL4-3 | RT-L74V | CEM + CEM-SS | cytopathic effect / XTT | 1
CC(C)OC(=S)Nc1ccc(Cl)c(C(=O)OC2(C)COC2)c1 |  | RT-L100I | CEM | syncytia | 14
Cc1cc(C#N)cc(C)c1Oc1nc(Nc2ccc(C#N)cc2)ncc1SCC(=O)NCc1ccc(O)cc1 |  | RES056 | MT-4 | MTT | 49.3
C[C@@H]1CCO[C@H]2Cn3cc(C(=O)NCc4ccc(F)cc4F)c(=O)c(O)c3C(=O)N12 |  | I60M/V72I/L74F/V75I | TZM-bl | luciferase / luminescence | 0.3
CC(=O)OCCOC(=O)c1cc(NC(=S)OC(C)C)ccc1Cl |  | RT-V106A | CEM | syncytia | >10